Taken from: PubChem BioAssay AID624099 (ICCB-Longwood, 2012)
The deposit covers about 21,000 reagents; below is a part drawn at random. Over the whole deposit, 497 (2.4%) were called active. 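Higher z means weaker E2 silencing; only reporter increases were scored, and knock-downs that hurt cell survival may mask genuine repressor factors.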 A number with no mark means an inactive call.

Screen: 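Human genes that papillomavirus E2 requires to repress the HPV18 LCR promoter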 (primary screen)
System: human C33A cervical carcinoma cells (HPV-negative) stably expressing BPV1 E2 and an HPV18 LCR luciferase reporter
Knock-down reagent: siRNA pool against human genes, 40 nM
Time to read-out: 72 h
Measurement: 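Per-well luciferase luminescence, z-scored on each plate against the plate mean and SD with control wells left out, then averaged across three replicate plates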
Reading the numbers: mean z-score and z-score: higher = stronger reporter signal, weaker E2 silencing
Call rule: 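Hit if mean z-score reaches 2 and two or more of three replicate z-scores also reach 2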

gene knocked down	mean z-score	z-score, replicate A	z-score, replicate B	z-score, replicate C
CWC22 (GeneID 57703)	-1.54	-1.4	-1.6	-1.63
CSAG1 (GeneID 158511)	1.23	1.05	1.48	1.15
ASTN2 (GeneID 23245)	0.48	0.36	0.69	0.4
TMEM247 (GeneID 388946)	-0.95	-0.59	-1.01	-1.26
GOLGA8F (GeneID 100132565)	-0.35	-0.7	-0.37	0.02
SNRNP35 (GeneID 11066)	0.7	0.73	0.53	0.85
TRAM2-AS1 (GeneID 401264)	1.05	1.21	1.2	0.74
XRRA1 (GeneID 143570)	-0.5	-0.55	-0.61	-0.35
CYP2D6 (GeneID 1565)	-0.63	-0.41	-0.8	-0.67
CCNQP1 (GeneID 339521)	-0.39	-0.29	-0.52	-0.35
YIPF7 (GeneID 285525)	-0.4	-0.3	-0.13	-0.78
SPTA1 (GeneID 6708)	-0.5	-0.64	-0.47	-0.41
GKN2 (GeneID 200504)	-1.15	-0.92	-1.34	-1.18
SIAH3 (GeneID 283514)	1.18	1.2	1.19	1.16
LOC401256 (retired record) (GeneID 401256)	-1.62	-2	-1.44	-1.42
PUS7 (GeneID 54517)	1.94	1.74	1.89	2.18
TFR2 (GeneID 7036)	0.12	-0.02	-0.17	0.56
NICN1 (GeneID 84276)	-1.21	-1.24	-1.23	-1.16
BMAL1 (GeneID 406)	0.21	0.23	0.19	0.21
FBXO24 (GeneID 26261)	0.48	0.43	0.44	0.58
TXNDC12 (GeneID 51060)	1.37	1.3	1.79	1.03
CD79A (GeneID 973)	0.11	0.27	-0.08	0.15
KLF17 (GeneID 128209)	1.43	1.29	1.49	1.51

Reformatted: 6 of the entries above
{"gene knocked down":"GKN2 (GeneID 200504)","mean z-score":-1.15,"z-score, replicate A":-0.92,"z-score, replicate B":-1.34,"z-score, replicate C":-1.18}
{"gene knocked down":"SIAH3 (GeneID 283514)","mean z-score":1.18,"z-score, replicate A":1.2,"z-score, replicate B":1.19,"z-score, replicate C":1.16}
{"gene knocked down":"LOC401256 (retired record) (GeneID 401256)","mean z-score":-1.62,"z-score, replicate A":-2,"z-score, replicate B":-1.44,"z-score, replicate C":-1.42}
{"gene knocked down":"PUS7 (GeneID 54517)","mean z-score":1.94,"z-score, replicate A":1.74,"z-score, replicate B":1.89,"z-score, replicate C":2.18}
{"gene knocked down":"TFR2 (GeneID 7036)","mean z-score":0.12,"z-score, replicate A":-0.02,"z-score, replicate B":-0.17,"z-score, replicate C":0.56}
{"gene knocked down":"NICN1 (GeneID 84276)","mean z-score":-1.21,"z-score, replicate A":-1.24,"z-score, replicate B":-1.23,"z-score, replicate C":-1.16}

Further reagents follow.
gene knocked down	mean z-score	z-score, replicate A	z-score, replicate B	z-score, replicate C
ULK1 (GeneID 8408)	0.22	0.5	0	0.17
SCOC (GeneID 60592)	0.4	0.51	0.42	0.26
ABHD17AP4 (GeneID 729495)	0.09	0.4	0.18	-0.31
STEAP1B (GeneID 256227)	1.88	1.09	2.62	1.93
TPTEP2 (GeneID 400927)	-0.28	-0.25	-0.13	-0.45
CHIT1 (GeneID 1118)	-0.89	-0.56	-1.17	-0.94
NUP88 (GeneID 4927)	-0.28	-0.44	-0.1	-0.31
EXO5 (GeneID 64789)	0.53	0.41	0.65	
DECR1 (GeneID 1666)	0	-0.15	0.14	0.02
GJD2 (GeneID 57369)	1.31	1.31	1.36	1.27
RCN3 (GeneID 57333)	0.68	0.58	1.34	0.12
GNA12 (GeneID 2768)	-0.61	-0.75	-0.77	-0.31
TAFA3 (GeneID 284467)	0.57	0.36	0.71	0.65
ANAPC13 (GeneID 25847)	-0.71	-0.65	-0.75	-0.74
RHEBL1 (GeneID 121268)	1.35	1.63	1.18	1.25
ZNF628 (GeneID 89887)	1	0.43	1.1	1.47
